The numbers were not newly measured in patent US5976535A, “Pretargeting protocols for the enhanced localization of cytotoxins to target sites and cytotoxic combinations useful therefore” (NeoRx Corporation, priority 1995, dated 1999), which cites them from elsewhere.

For this data set the following is noted: palytoxin with preserved free terminal amino group; cited from earlier work.

Turning to palytoxin, the “toxicity relative to palytoxin derivatives lacking a free amine” value is reported as “approximately 500 fold”.
